{"source": "patent US20120269821A1", "binders": {"B1": {"name": "CAP206-CH12 (antibody, V domains shown)", "VH": "QVQLVQSGAEVKKPGSSVKLSCKASGGTFGSYSVTWVRQAPGQTFEWVGRIVPWVGVPNYAPKFQGRVTITADKSSTVYMELTSLRFEDTAVYYCATAYEASGLSYYYYMDDWGKGTTVTVSS", "VL": "EIVLTQSPGTLSLSPGERATLSCRASQSVTSSYLAWFRHKPGQAPRLLIYGASYRGTGIPDRISGSGSGTDFTLTISRLEPEDFAVYYCQHYGGSPGMYTFGQGTRLEIK"}}, "molecular_target": "MPR.03 peptide", "assay": "antigen panel (luminex assay per paragraph 163); unit not given"}
{"binder": "B1", "values": [{"measurement": "reactivity", "result": 23600}]}
